Compound potency records, mixed from different reports. Data source: NIAID ChemDB in PubChem.

Common to all: cytotoxicity tests; cell line: MT-4; endpoint: CC50

Lines come from different laboratories, so protocols vary. CCn: concentration that lowers growth or viability of the cells by n%.

CCn1c(C)c(C)c2c(-c3ccc(Cl)cc3)c(C(OC(C)(C)C)C(=O)O)c(C)nc21 ; method: MTT ; result: >233 µM
Cc1ccc2nc(-c3c(F)cccc3F)n(Cc3c(F)cccc3F)c2c1 ; result: 30.45 µM
Cc1cn([C@@H]2CC=C[C@@H](CO)O2)c(=O)[nH]c1=O ; result: >100 µM
O=C(OC1OC2COC(=O)c3cc(O)c(O)c(O)c3-c3c(cc(O)c(O)c3O)C(=O)OC2C(OC(=O)c2cc(O)c(O)c(O)c2)C1O)c1cc(O)c(O)c(O)c1 ; result: 23.2 µg/mL
O=C1c2ccccc2N(Cc2ccccc2)S(=O)(=O)N1Cc1ccccc1 ; result: >125 µM
Cc1nc2c(c(C)c(C)n2CC(=O)O)c(-c2ccc(Cl)cc2)c1[C@H](OC(C)(C)C)C(=O)O ; method: MTT ; result: >217.9 µM
O=C1c2ccccc2N(Cc2ccccc2)S(=O)(=O)N1Cc1ccc(Cl)cc1 ; result: 37.6 µM
O=C1O[C@H]2[C@@H]3OC(=O)c4cc(O)c(O)c5c4[C@@H]4C(=CC(=O)[C@](O)(O5)C4(O)O)C(=O)OC[C@H]2O[C@@H](OC(=O)c2cc(O)c(O)c(O)c2)C3OC(=O)c2cc(O)c(O)c3c2[C@@H]2C1=CC(=O)[C@](O)(O3)C2(O)O ; result: 63.1 µg/mL
O=c1ccn([C@@H]2CC=C[C@@H](CO)O2)c(=O)[nH]1 ; result: >100 µM
O=C1C=C2C(=O)O[C@H]3[C@@H]4OC(=O)c5cc(O)c(O)c(O)c5-c5c(cc(Oc6c(C(=O)O[C@H]7[C@H](OC(=O)c8cc(O)c(O)c(O)c8)O[C@H](COC(=O)c8cc(O)c(O)c(O)c8)[C@@H](OC(=O)c8cc(O)c(O)c(O)c8)[C@@H]7OC(=O)c7cc(O)c(O)c(O)c7)cc(O)c(O)c6O)c(O)c5O)C(=O)OC[C@H]3O[C@@H](OC(=O)c3cc(O)c(O)c(O)c3)[C@@H]4OC(=O)c3cc(O)c(O)c4c3[C@H]2[C@@](O)(O4)C1=O ; result: 28.6 µg/mL
O=C1c2ccccc2N(Cc2ccccc2-c2ccccc2)S(=O)(=O)N1Cc1ccccc1 ; result: >125 µM
O=c1ccn([C@H]2CC=C[C@@H](CO)O2)c(=O)[nH]1 ; result: >100 µM
CCNC(=O)OCCOCn1c(Sc2cccc(C)c2)c(C)c(=O)[nH]c1=O ; result: 171 µM
O=C1O[C@H]2[C@@H]3OC(=O)c4cc(O)c(O)c(O)c4-c4c(cc(Oc5c(C(=O)O[C@H]6[C@H](OC(=O)c7cc(O)c(O)c(O)c7)O[C@H](COC(=O)c7cc(O)c(O)c(O)c7)[C@@H](OC(=O)c7cc(O)c(O)c(O)c7)[C@@H]6OC(=O)c6cc(O)c(O)c(O)c6)cc(O)c(O)c5O)c(O)c4O)C(=O)OC[C@H]2O[C@@H](OC(=O)c2cc(O)c(O)c(O)c2)[C@@H]3OC(=O)c2cc(O)c(O)c3c2[C@H]2C(=O)[C@@](O)(O3)C(=O)C=C12 ; result: 29.3 µg/mL
CCc1c(Sc2ccccc2)n(COCc2ccccc2)c(=S)[nH]c1=O ; result: >10 µM
Cc1cn([C@@H]2C=CC[C@@H](CO)O2)c(=O)[nH]c1=O ; result: >100 µM
O=C(OC1OC2COC(=O)c3cc(Oc4c(C(=O)OC5OC6COC(=O)c7cc(O)c(O)c(O)c7-c7c(cc(O)c(O)c7O)C(=O)OC6C(OC(=O)c6cc(O)c(O)c(O)c6)C5OC(=O)c5cc(O)c(O)c(O)c5)cc(O)c(O)c4O)c(O)c(O)c3-c3c(cc(O)c(O)c3O)C(=O)OC2C(OC(=O)c2cc(O)c(O)c(O)c2)C1OC(=O)c1cc(O)c(O)c(O)c1)c1cc(O)c(O)c(O)c1 ; result: 24.7 µg/mL
Cc1c(Sc2ccccc2)n(COCCOC(=O)C2CCCCC2)c(=O)[nH]c1=O ; result: 78 µM
O=C(O)c1ccc2nc(-c3c(F)cccc3F)n(Cc3c(F)cccc3F)c2c1 ; result: 117 µM
O=CC(OC(=O)c1cc(O)c(O)c(O)c1Oc1cc2c(c(O)c1O)-c1c(cc(O)c(O)c1O)C(=O)OC(C(OC(=O)c1cc(O)c(O)c(O)c1)C(C=O)OC(=O)c1cc(O)c(O)c(O)c1)C(O)COC2=O)C(OC(=O)c1cc(O)c(O)c(O)c1)C1OC(=O)c2cc(O)c(O)c(O)c2-c2c(cc(O)c(O)c2O)C(=O)OCC1O ; result: 34.6 µg/mL
CCc1c(Sc2ccccc2)n(COCc2ccc(Cl)cc2)c(=S)[nH]c1=O ; result: 20 µM
O=C(O[C@H]1O[C@@H]2COC(=O)c3cc(O)c(O)c(O)c3-c3c(cc(O)c(O)c3O)C(=O)O[C@H]2[C@@H]2OC(=O)c3cc(O)c(O)c(O)c3-c3c(cc(O)c(O)c3O)C(=O)O[C@@H]12)c1cc(O)c(O)c(Oc2c(C(=O)O[C@H]3O[C@@H]4COC(=O)c5cc(O)c(O)c(O)c5-c5c(cc(O)c(O)c5O)C(=O)O[C@H]4[C@@H]4OC(=O)c5cc(O)c(O)c(O)c5-c5c(cc(O)c(O)c5O)C(=O)O[C@@H]34)cc(O)c(O)c2O)c1 ; result: 41.3 µg/mL
CCOCn1c(Sc2ccccc2)c(CC)c(=O)[nH]c1=O ; result: 133 µM
CCCCn1c(C)c(C)c2c(-c3ccc(Cl)cc3)c(C(OC(C)(C)C)C(=O)O)c(C)nc21 ; method: MTT ; result: >219 µM
Fc1ccccc1Cn1c(-c2ccccc2F)nc2ccccc21 ; result: 23.33 µM

Repeating the first 4 entries:

{"smiles": "CCn1c(C)c(C)c2c(-c3ccc(Cl)cc3)c(C(OC(C)(C)C)C(=O)O)c(C)nc21", "method": "MTT", "result": ">233 µM"}
{"smiles": "Cc1ccc2nc(-c3c(F)cccc3F)n(Cc3c(F)cccc3F)c2c1", "result": "30.45 µM"}
{"smiles": "Cc1cn([C@@H]2CC=C[C@@H](CO)O2)c(=O)[nH]c1=O", "result": ">100 µM"}
{"smiles": "O=C(OC1OC2COC(=O)c3cc(O)c(O)c(O)c3-c3c(cc(O)c(O)c3O)C(=O)OC2C(OC(=O)c2cc(O)c(O)c(O)c2)C1O)c1cc(O)c(O)c(O)c1", "result": "23.2 µg/mL"}